For 29 compounds, inhibition results are on record in PubChem BioAssay AID485395 (ICCB-Longwood Screening Facility, Harvard Medical School, 2010).

As a reminder, the inhibition is the drop in the measured response relative to a control, in per cent.

Structures are written as SMILES. The list shows a part of the results, in another mix than the full data. Calls of active or inactive are those of the source. Cut-off read from the data, not from the text of the source: active = inhibition above about 25% (passing the limit was not always enough); inactive = the rest.

This assay deals with replicative DNA helicase (DnaC/DnaB), Staphylococcus aureus. Nature of the assay: inhibitors of S. aureus replicative helicase, primary screen, biochemical, fluorescence unwinding readout (AID 485395).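 Note: 0% = mean of negative control wells and 100% = mean of positive control wells.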 As to conditions: purified S. aureus helicase, fluorescence unwinding assay; stronger effect = higher value; concentration not given here.
Turning to `Cn1nc(C(=O)NCC2(N3CCCCC3)CCCCC2)c2ccccc2c1=O`, the inhibition was inactive: -1%.
As for `CC(C)(C)OC(=O)N1CCC(Nc2ccc(OC(F)(F)F)cc2)CC1`, the inhibition was inactive: -15%.
`FC(F)(F)Oc1ccc(NC2CCNCC2)cc1`: the inhibition was inactive: 0%.
Then `NC(=O)C1(Nc2ccc(F)cc2)CCNCC1`, with inactive: 1%; and `c1ccc(CN2CCC(Nc3ccc4c(c3)OCO4)CC2)cc1`, with inactive: 4%.
Then `Cc1ccc(C(=O)NCC2(N(C)C)CCCCC2)o1`, with inactive: -6%; and `CCCN1CCC(Nc2ccc(OC)c(OC)c2)CC1`, with inactive: 5%.
With `COc1ccc(C(=O)NCC2(N3CCCCC3)CCCCC2)cc1`, the inhibition was inactive: 6%.
Then `N#CC1(Nc2ccccc2)CCN(Cc2ccccc2)CC1`, with inactive: -4%.
As for `Cc1cnc(C(=O)NCC2(N3CCCCC3)CCCCC2)cn1`, the inhibition was inactive: -5%.
With `CC1CN(CCc2ccccc2)CCC1=O` (centres undefined), the inhibition was inactive: 6%.
As for `O=C1CCN(Cc2ccccc2)CC1`, the inhibition is inactive: 8%.
As to `O=C(NCC1(N2CCOCC2)CCCCC1)c1ccc2nc[nH]c2c1`, the inhibition was inactive: -21%.
As to `CCOC(=O)N1CCC(Nc2ccc(F)cc2)CC1`, the inhibition was inactive: 9%.
As to `CCOC(=O)N1CCC(Nc2cccc(C)c2)CC1`, the inhibition was inactive: 3%.
With `CC1CN(Cc2ccccc2)CCC1=O` (centres undefined), the inhibition is inactive: 0%.
Consider `CC1CN(C)C(C)CC1Nc1ccccc1` (centres undefined), for which the inhibition is inactive: 14%.
Then `CCN1CCC(Nc2ccc(F)cc2)CC1`, with inactive: 10%.
As for `CN(C)c1ccc(C(=O)NCC2(N3CCCCC3)CCCCC2)cc1`, the inhibition is inactive: -5%.
As for `CC1CN(CCc2ccccc2)C(C)CC1=O` (centres undefined), the inhibition is inactive: 14%.
With `CCOc1ncccc1C(=O)NCC1(N(C)C)CCCCC1`, the inhibition is inactive: -4%.
In the case of `O=C(NCC1(N2CCCCC2)CCCCC1)c1n[nH]c2ccccc12`, the inhibition was inactive: 8%.
Take `CCOc1ncccc1C(=O)NCC1(N2CCCCC2)CCCCC1`: the inhibition is inactive: 7%.
Then `NC(=O)C1(Nc2ccccc2)CCN(Cc2ccccc2)CC1`, with inactive: 2%; and `O=C1CCN(CCc2ccccc2)CC1`, with inactive: 6%; and `CN1CCC(Nc2ccc(F)cc2)CC1`, with inactive: -8%.
`O=C(NCC1(N2CCOCC2)CCCCC1)c1cc2ccccc2cc1O`: the inhibition is inactive: -5%.
On to `CCCN1CCC(Nc2cc(OC)cc(OC)c2)CC1`, for which the inhibition was inactive: 15%.
Turning to `Cc1c(C(=O)NCC2(N3CCOCC3)CCCCC2)oc2c(Cl)cccc12`, the inhibition was inactive: -1%.
